The record followed here is PMC6768660, “Protein engineering expands the effector recognition profile of a rice NLR immune receptor” (eLife, 2019).

The target of this experiment is AVR-PikD with C-terminal 6xHis tag (Magnaporthe oryzae, UniProt C4B8B8). Briefly: SPR. A general note: Surface plasmon resonance follows binding to a sensor surface in real time, without labels.

B1: Pikp-HMA^NK-KE (domain or fragment)
chain: GLKQKIVIKVAMEGNNCRSKAMALVASTGGVDSVALVGDLRDKIEVVGYGIDPIKLISALRKKVGDAELLQVSQAKED
B1: the binding result is given as “binds”.
